Pooled drug test results. Numbers come from NIAID ChemDB, via PubChem.

All rows: whole-cell or culture tests; agent: Candida parapsilosis

ECn is the concentration giving n% inhibition of infection, replication or growth. Inhibition is in % at the dose shown (toxicity tests: loss of growth or viability). Conditions beyond the fields shown may differ between rows. A number after MIC or MFC names an inhibition level or a share of isolates. Blank or dashed fields: not listed here. Zones are inhibition diameters on agar.

smiles	strain	method	setting	read-out	tested at	value
CC[C@@H]([C@H](C)O)n1ncn(-c2ccc(N3CCN(c4ccc(OC[C@@H]5CO[C@@](Cn6cncn6)(c6ccc(F)cc6F)C5)cc4)CC3)cc2)c1=O		broth dilution		MIC50		0.12 µg/mL
O=C(/C=C/c1cccc(Cl)c1)OC1CCN(CC(O)(Cn2cncn2)c2ccc(F)cc2F)CC1	0306392	broth dilution		MIC80		0.124 µM
C[C@@H]1O[C@@H](O[C@H]2[C@H](O)[C@@H](O)C(OC3[C@H](O[C@H]4CC[C@@]5(C)[C@@H](CC[C@]6(C)[C@@H]5CC=C5[C@@H]7CC(C)(C)CC[C@]7(C(=O)O)CC[C@]56C)[C@]4(C)CO)OC[C@H](O)[C@@H]3O)O[C@@H]2CO)[C@H](O)[C@H](O)[C@H]1O	Clinical isolates			MFC		12.5 µg/mL
COc1ccc(/C=N/O)cc1				MIC100		3310 µM
C[C@H]1[C@H](O)[C@@H](C)/C=C/C=C/C=C/C=C/C=C/C=C/C=C/[C@H](O[C@@H]2O[C@H](C)[C@@H](O)[C@H](N)[C@@H]2O)C[C@@H]2O[C@](O)(C[C@@H](O)C[C@@H](O)CC[C@H](O)[C@@H](O)C[C@@H](O)CC(=O)O[C@H]1C)C[C@H](O)[C@H]2C(=O)O	ATCC 22019	broth dilution / absorbance		MIC99		0.78 µM
C[C@H]1[C@H](O)[C@@H](C)/C=C/C=C/C=C/C=C/C=C/C=C/C=C/[C@H](O[C@@H]2O[C@H](C)[C@@H](O)[C@H](N)[C@@H]2O)C[C@@H]2O[C@](O)(C[C@@H](O)C[C@@H](O)CC[C@H](O)[C@@H](O)C[C@@H](O)CC(=O)O[C@H]1C)C[C@H](O)[C@H]2C(=O)O		broth dilution		MIC50		0.5 µg/mL
CN[C@H]1CC[C@@H](c2ccc(Cl)c(Cl)c2)c2ccccc21	MMRL1594	broth dilution		MIC90		24 µg/mL
C[C@@H](c1ncncc1F)[C@](O)(Cn1cncn1)c1ccc(F)cc1F		broth dilution		MIC50		0.015 µg/mL
CCOc1ccc2nc3cc(N=C4NC(=O)/C(=C\c5ccc([N+](=O)[O-])cc5)S4)ccc3c(N)c2c1		broth dilution		MFC		>1000 µg/mL
O=C(O[C@@H]1COC(=O)c2cc(O)c(O)c(O)c2-c2c(cc(O)c(O)c2O)C(=O)OC1C1OC(=O)c2cc(O)c(O)c(O)c2-c2c(O)c(O)c(O)c3c2C(=O)OC1[C@H]3O)c1cc(O)c(O)c(O)c1	ATCC 22019	broth dilution		MIC100		580 µg/mL
O=C(/C=C/c1ccccc1F)OC1CCN(CC(O)(Cn2cncn2)c2ccc(F)cc2F)CC1	0306392	broth dilution		MIC80		0.129 µM
CCCCCOc1ccc(-c2cc(-c3ccc(C(=O)N[C@H]4C[C@@H](O)[C@@H](O)NC(=O)[C@@H]5[C@@H](O)[C@@H](C)CN5C(=O)[C@H]([C@H](O)CC(N)=O)NC(=O)[C@H]([C@H](O)[C@@H](O)c5ccc(O)c(OS(=O)(=O)O)c5)NC(=O)[C@@H]5C[C@@H](O)CN5C(=O)[C@H]([C@@H](C)O)NC4=O)cc3)no2)cc1		broth dilution		MIC50		1 µg/mL
COc1ccc(C(c2ccc(OC)cc2)n2cncn2)cc1		broth dilution		MFC		>256 µg/mL
Cc1ccc(N2C(=O)C[C@@H](C)C2=O)cc1	CCC 124-2000	broth dilution / turbidity		MIC		62.5 µg/mL
O=C(COc1cccc2ccccc12)OC1CCN(CC(O)(Cn2cncn2)c2ccc(F)cc2F)CC1	0306392	broth dilution		MIC80		0.479 µM
O=C(O)CN1C(=O)CSC1c1ccc(Cl)cc1		broth dilution		EC50		77.51 µM
C[C@@H]1CC(=O)N(c2ccc(F)cc2F)C1=O	CCC 124-2000	broth dilution / turbidity		MIC		31.3 µg/mL
CCC(C)n1ncn(-c2ccc(N3CCN(c4ccc(OC[C@H]5CO[C@](Cn6cncn6)(c6ccc(Cl)cc6Cl)O5)cc4)CC3)cc2)c1=O		broth dilution		MIC50		0.13 µg/mL
Cc1ccc(-n2cc(C(C)(C)O)nn2)cc1C	URM 3624	broth dilution		inhibition	2048 µg/mL	0%
COc1ccc(/C=N\O)cc1		broth dilution		MIC100		3310 µM
COC(=O)CN(CCCOc1ccccc1)CC(O)(Cn1cncn1)c1ccc(F)cc1F				EC80		>64 µg/mL
Clc1ccc(C(c2ccccc2)n2ccnc2)cc1		broth dilution		MFC		32 µg/mL
C[C@@H]1CC(=O)N(CCc2ccccc2)C1=O	CCC 124-2000	broth dilution / turbidity		MIC		31.3 µg/mL
C[C@H]1[C@H](O)[C@@H](C)/C=C/C=C/C=C/C=C/C=C/C=C/C=C/[C@H](O[C@@H]2O[C@H](C)[C@@H](O)[C@H](N)[C@@H]2O)C[C@@H]2O[C@](O)(C[C@@H](O)C[C@@H](O)CC[C@H](O)[C@@H](O)C[C@@H](O)CC(=O)O[C@H]1C)C[C@H](O)[C@H]2C(=O)O	MTCC 1965	visual reading		MFC		1 µg/mL
C[C@H]1[C@H](O)[C@@H](C)/C=C/C=C/C=C/C=C/C=C/C=C/C=C/[C@H](O[C@@H]2O[C@H](C)[C@@H](O)[C@H](N)[C@@H]2O)C[C@@H]2O[C@](O)(C[C@@H](O)C[C@@H](O)CC[C@H](O)[C@@H](O)C[C@@H](O)CC(=O)O[C@H]1C)C[C@H](O)[C@H]2C(=O)O	Cp1	agar diffusion		zone	100 µg/disc	33 mm
O=[N+]([O-])c1ccc(/C=N\O)cc1				MIC100		3010 µM
O=C(CCn1ccnc1)c1cccc(C(O)c2ccc(Br)cc2)c1	RTCC 1079	broth dilution		MIC		>64 µg/mL
c1ccc(C(c2ccccc2)n2cncn2)cc1		agar		MIC90		64 µg/mL
O=C(CCn1ccnc1)c1ccc(Br)cc1	RTCC 1018	broth dilution		MIC		64 µg/mL
O/N=C\c1ccccc1O				MIC100		3600 µM
COc1ccccc1C1SCC(=O)N1C(C)C(=O)O		broth dilution		EC50		79.61 µM
O=C(CCn1ccnc1)c1ccc(Cl)cc1	RTCC 1018	broth dilution		MIC		>64 µg/mL
C[C@@H]1O[C@@H](O[C@H]2[C@H](O[C@H]3CC[C@]4(C)[C@H]5CC=C6[C@@H]7CC(C)(C)CC[C@]7(C(=O)O)CC[C@@]6(C)[C@]5(C)CC[C@H]4C3(C)C)OC[C@H](O)[C@@H]2O)[C@H](O)[C@H](O)[C@H]1O	Clinical isolates			MFC		>100 µg/mL
C=CCc1ccc(O)c(OC)c1	218	turbidity		MIC90		485 µg/mL
Cc1ccc(-c2c3c(N)c4c(nc3nc3c2c(C)nn3-c2ccccc2)CCC4)cc1	CCC 124	broth dilution / absorbance		MIC100		125 µg/mL
C[C@H]1[C@H](O)[C@@H](C)/C=C/C=C/C=C/C=C/C=C/C=C/C=C/[C@H](O[C@@H]2O[C@H](C)[C@@H](O)[C@H](N)[C@@H]2O)C[C@@H]2O[C@](O)(C[C@@H](O)C[C@@H](O)CC[C@H](O)[C@@H](O)C[C@@H](O)CC(=O)O[C@H]1C)C[C@H](O)[C@H]2C(=O)O	MTCC 1965	broth dilution		MIC100		0.5 µg/mL
Cc1ccc(-c2c3c(N)c4c(nc3nc3c2c(C)nn3-c2ccccc2)CCCCC4)cc1	CCC 124	broth dilution / absorbance		MIC50		62.5 µg/mL
CC(C)CC(C(=O)O)N1C(=O)CSC1c1ccccc1		broth dilution		EC50		57.23 µM
O=C(/C=C/c1cccc(Br)c1)OC1CCN(CC(O)(Cn2cncn2)c2ccc(F)cc2F)CC1	0306392	broth dilution		MIC80		0.458 µM
O=C(O)CN1C(=O)CSC1c1c(Cl)cccc1Cl		broth dilution		EC50		75.33 µM
Cc1ccc(/C=C/C(=O)OC2CCN(CC(O)(Cn3cncn3)c3ccc(F)cc3F)CC2)cc1	0306392	broth dilution		MIC80		0.13 µM
c1ccc(C(c2ccccc2)n2ccnc2)cc1		agar		MIC90		0.5 µg/mL
CC1(C)CC[C@]2(C(=O)O)CC[C@]3(C)C(=CC[C@@H]4[C@@]5(C)CC[C@H](O[C@@H]6OC[C@H](O)[C@H](O)C6O)[C@@](C)(CO)[C@@H]5CC[C@]43C)[C@@H]2C1	Clinical isolates			MFC		>100 µg/mL
CC(C(=O)O)N1C(=O)CCSC1c1ccccc1		broth dilution		EC50		52.89 µM
O=C1C(=O)c2ccccc2C2=C1CC(CI)O2	Clinical isolate	broth dilution		MIC		42.6 µg/mL
O=C(O)C(Cc1ccccc1)N1C(=O)CSC1c1ccccc1		broth dilution		EC50		52.9 µM
CC(C)(O)c1cn(-c2cccc3ccccc23)nn1	URM 4607	broth dilution		inhibition	2048 µg/mL	0%
O=C(/C=C/c1ccc([N+](=O)[O-])cc1)OC1CCN(CC(O)(Cn2cncn2)c2ccc(F)cc2F)CC1	0306392	broth dilution		MIC80		0.122 µM
C[C@@H]1O[C@@H](O[C@H]2[C@H](O[C@H]3CC[C@@]4(C)[C@@H](CC[C@]5(C)[C@@H]4CC=C4[C@@H]6CC(C)(C)CC[C@]6(C(=O)O)CC[C@]45C)[C@]3(C)CO)OC[C@H](O)[C@@H]2O)[C@H](O)[C@H](O)[C@H]1O	Clinical isolates			MFC		100 µg/mL
O=C(O)C(Cc1ccccc1)N1C(=O)CCSC1c1ccccc1		broth dilution		EC50		56.28 µM
CC(C)(O)c1cn(-c2ccccc2)nn1	URM 4889	broth dilution		inhibition	2048 µg/mL	0%
S=C(S)n1nnc2ccccc21		broth dilution / absorbance	48 h	EC50		>50 µg/mL
C=CC(C)(C)c1cc(C2CC(=O)c3c(cc(O)c(CC=C(C)C)c3O)O2)c(O)cc1O	hemoculture isolate 15760	agar diffusion / agar		zone	2 mg/mL	12 mm
N#Cc1ccc(/C=C/C(=O)OC2CCN(CC(O)(Cn3cncn3)c3ccc(F)cc3F)CC2)cc1	0306392	broth dilution		MIC80		0.507 µM

3 of the rows above, restated:

smiles,strain,method,setting,read-out,tested at,value
O=C(/C=C/c1cccc(Br)c1)OC1CCN(CC(O)(Cn2cncn2)c2ccc(F)cc2F)CC1,0306392,broth dilution,,MIC80,,0.458 µM
O=[N+]([O-])c1ccc(/C=N\O)cc1,,,,MIC100,,3010 µM
COC(=O)CN(CCCOc1ccccc1)CC(O)(Cn1cncn1)c1ccc(F)cc1F,,,,EC80,,>64 µg/mL